Test results reported in patent US6159963A, “Method for treating substance abuse” (Eli Lilly and Company, priority 1996, dated 2000).

Test system: 5-HT-2 receptor
Experiment: pharmacological studies, 5-HT-2 receptor activity

Cc1cc2c(s1)Nc1ccccc1N=C2N1CCN(C)CC1 [olanzapine, 2-methyl-4-(4-methyl-1-piperazinyl)-10H-thieno[2,3-b][1,5]benzodiazepine]
activity at the 5-HT-2 receptor: active at the 5-HT-2 receptor
